Assay results: PMC4694137
For at least one entry, the source does not settle the construct or the ends of the probe.

System: AgaR2 (Streptococcus suis 05ZYH33)
Assay: EMSA
Settings: 0.5-5 pmol protein, 0.2 pmol probe, 20 uL; Roche DIG gel-shift binding buffer (composition and pH not stated), 20 min at room temperature, 0.2 pmol DIG-labeled probe, 0.5-5 pmol protein in 15-20 uL, native 7% PAGE; recombinant protein; protein details: N-terminal 6xHis (pET28a); label: DIG-ddUTP (3', terminal transferase)

“AACACTTCTTTGTGGTTATGTCCAGTACTTTTTAAA (double strand) [SSU05_0448/9 site2 probe]”: binds.
“ACTATTGGTTTGTGGTTATAACCAGTTAGGGTAAAG (double strand) [EF1809 site2 probe]”: binds.
“ATATTTGGTATATGGTTATAACCAGTTTGATAAGTA (double strand) [SSU05_1259 probe (agaA)]”: binds.
“TATAAGAAAAACTGGTTATAACCAGAAATCCCGGGG (double strand) [SSU05_0195 probe (agaS)]”: binds.
